We go through one sequence from PMC3384613.

For at least one entry, the source does not settle the construct or the ends of the probe.

For this data set, the system named is GST-Czf1p (wild type) (Candida albicans). Briefly: EMSA. Conditions: binding detectable from 25 nM, multiple complexes at higher protein; 12% glycerol, 12 mM HEPES-NaOH pH 7.9, 4 mM Tris-Cl pH 7.9, 90 mM KCl, 2 ug poly(dI-dC), 5 ug BSA, 0.625 ng probe in 20 uL, 30 min at 30 C; recombinant protein; residues 1-385; protein details: GST (N-terminal); label: 32P 5' end label (T4 PNK); probe letters rebuilt from the primers and the genome.

Regarding “CAAAACAAGCCAGAATAAAAATATCAACAAAATGGTTTTAACTTTCATTAAAAAACTTTAAAATCTTAACTATTAATTGCTAATGTTGCAGATCAATAATATTGAGCCATGAATGAGAGATATAAACATGTTATAGAACAACAACAACGAGAAAGAAAAAAAAAAGACTACAAACCAAATAGTTGATTTAAGCTATTATAACCTTGAATAGTTTAATTCATTTTCATTTGAGTTTTTTCTTCCCATTGTGTTCCGTAAATGAATTAGAAGAGCATTGGATTGTTTTGAAGCTATTCATGATTATATGGACCCAATAATAACAATAAGACATAACTCATTTAAACATATTCATCTAATCGAAAAAGAAGTATTCAAAGTTTGGGATTATCAACAATAATGTCGGGGAGGCAAATGTATCTAATGCTAAATATTTCTTGCGTCATAACTCATTAAATAGCCCATACTGCATTAATTGTTTAGGTAACACTTGTCCAGAACAATACTTTTTTTTTTAGTGGATAGAATACTATTGTGCCAATCATTTGACTCTTTTGGTACTTCCGGT (double strand) [CZF1 promoter fragment E]”, the binding result was “binds”.
